Marks after values point to notes of the source that are not given here.
Columns and labels:
type 3 reovirus = experiment: Known inactivators: reduction in viral titre, reovirus; conditions: 0.05%
adenovirus 5 = experiment: Known inactivators: reduction in viral titre, adenovirus; conditions: 0.05%
HSV-1 herpesvirus = experiment: Known inactivators: reduction in viral titre, herpesvirus; conditions: 0.05%
avian C-type retrovirus = experiment: Known inactivators: reduction in viral titre, retrovirus; conditions: 0.05%, 16-24 hours
[1] = system: Mammalian orthoreovirus, type 3 (strain Dearing, ATCC VR-824); experiment: Reovirus model, titration on L929 cells (Table 2); format: cell-based; conditions: 0.05% inactivator; 16 hours, 2-8° C.; then 3 hours at 37° C.
[2] = system: Influenza A/Brisbane/10/2010 infected cell DNA; experiment: Abasic sites induced by inactivation, A/Brisbane; conditions: 0.05%; 2-8/37° C.; untreated sample = 1
[3] = system: Paramyxovirus, Parainfluenzavirus 3; experiment: Comparative data for inactivation with BPL: Parainfluenzavirus 3; conditions: BPL 0.05%; 16 hours +2-8° C. (then 2 hours 37° C. for BPL hydrolysis); complete inactivation
[4] = system: Influenza B/Wisconsin/1/2010 infected cell DNA; experiment: Abasic sites induced by single/double inactivation with different concentrations of 069-1; conditions: single inactivation treatment; 0.05%; 2-8/37° C.
[5] = system: Influenza B/Wisconsin/1/2010 infected cell DNA; experiment: Abasic sites induced by double inactivation with BPL and 069-1; conditions: 2-8/37° C.
[6] = system: Influenza A/Christchurch//16/10 infected cell DNA; experiment: Abasic sites induced by inactivation (DNA Damage Quantification Kit), A/Christchurch; conditions: 0.05%; 2-8/37° C.; untreated sample = 1
[7] = system: Influenza A/California/7/09 infected cell DNA; experiment: Abasic sites induced by inactivation, A/California; conditions: 0.05%; 4/37° C.; untreated sample = 1
[8] = 16 hours, 2-8° C. (then 3 hours at 37° C.)
[9] = 16 hours, 2-8° C. (then 3 hours at 37° C. to remove BPL)

Q: What does the source list for C=O?
A: log 10 reduction factor in viral titre after treatment (type 3 reovirus; 16 hours, 2-8° C.): ~0 log 10; log 10 reduction factor in viral titre after treatment (type 3 reovirus; 17 hours, 19-23° C.): 1.7 log 10; log 10 reduction factor in viral titre after treatment (type 3 reovirus; 24 hours, 19-23° C.): 2.1 log 10; log 10 reduction factor in viral titre after treatment (type 3 reovirus; 3 days, 2-8° C.): 0.9 log 10; log 10 reduction factor in viral titre after treatment (type 3 reovirus; 6 days, 2-8° C.): 1.55 log 10; log 10 reduction factor in viral titre after treatment (adenovirus 5; 17 hours, 19-23° C.): ≧6.65 log 10; log 10 reduction factor in viral titre after treatment (adenovirus 5; 24 hours, 19-23° C.): ≧6.65 log 10; log 10 reduction factor in viral titre after treatment (HSV-1 herpesvirus; 17 hours, 19-23° C.): 2.95 log 10; log 10 reduction factor in viral titre after treatment (HSV-1 herpesvirus; 24 hours, 19-23° C.): 3.25 log 10; log 10 reduction factor in viral titre after treatment (HSV-1 herpesvirus; 3 days, 2-8° C.): 2.8 log 10; log 10 reduction factor in viral titre after treatment (HSV-1 herpesvirus; 6 days, 2-8° C.): 2.95 log 10; log 10 reduction factor in viral titre after treatment (avian C-type retrovirus; 15° C.): 0.6-1.0 log 10; log 10 reduction factor in viral titre after treatment (avian C-type retrovirus; 20° C.): 1.3-1.8 log 10; log 10 reduction factor in viral titre after treatment (avian C-type retrovirus; 24° C.): 1.5-2.2 log 10

Q: Which “Reduction (of reovirus titre)” value [1] does the source give for H2O2 here?
A: 0.45 log 10

Q: How did the “Reduction (of reovirus titre)” value [1] turn out when CCCC(OO)OO was run?
A: 4.0 log 10

Q: 2,2′-Dihydroperoxy-2,2′-dibutylperoxide was tested. Which “Reduction (of reovirus titre)” value [1] did it give?
A: 3.3 log 10

Q: For C1CN1, which “log 10 reduction factor in viral titre after treatment” value (from here on “log 10 reduction factor”) (type 3 reovirus; [8]) is on record?
A: 0.65 log 10

Q: For 1,1-Dihydroperoxymethane, which “Reduction (of reovirus titre)” value [1] is on record?
A: ≧3.8 * log 10

Q: Which “log 10 reduction factor” value (type 3 reovirus; [8]) does the source give for N-acetyl ethyleneimine here?
A: 1.15 log 10

Q: With β-propiolactone as the compound, how does the “log 10 reduction factor” value (type 3 reovirus; [8]) read?
A: 2.3-3.8 log 10

Q: What about the “log 10 reduction factor” value (adenovirus 5; [9]) of the same compound?
A: 2.7 log 10

Q: And the “log 10 reduction factor” value (HSV-1 herpesvirus; [9])?
A: 4.5 log 10

Q: What about the “Relative number of APS” value [2] of the same compound?
A: 29

Q: And the LRV [3]?
A: ≧9.5

Q: What about the “Relative number of APS” value [4] of the same compound?
A: 30

Q: What about the “Relative number of APS” value ([5]; Twofold inactivation treatment: BPL first, then the named inactivator 0.05%, samples diluted, dilution factor used) of the same compound?
A: 20

Q: And the “Relative number of APS” value ([5]; single inactivation treatment, 0.05%)?
A: 2

Q: What about the “Relative number of APS” value [6] of the same compound?
A: 0.6

Q: What about the “Reduction (of reovirus titre)” value [1] of the same compound?
A: 2.5 log 10

Q: What about the “Relative number of APS” value [7] of the same compound?
A: 63

Source: patent US9426989B2 (priority 2010, dated 2016)
